Mutational scan of HIV-1 Vif (LAI) in cells with APOBEC3G

Reference: Langley et al. 2025, preprint, doi:10.1101/2025.10.20.683452.

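A pool of vif mutants was passaged twice, 72 h each, on SupT1 cells that express APOBEC3G. Frequencies after the second round, in three biological replicates, were compared with the merged pool after the first round. The overlap of vif with pol had been removed, so integrase is unaffected.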

Vif of LAI (a laboratory-adapted subtype B strain), residues 12-115; positions count from the first residue of the whole protein:
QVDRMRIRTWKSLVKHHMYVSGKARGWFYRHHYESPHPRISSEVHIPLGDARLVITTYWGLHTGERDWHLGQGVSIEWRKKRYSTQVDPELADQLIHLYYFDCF

Scale: log2 enrichment, wild type = 0; negative values mean that the variant was depleted.
Substitutions are written as wild-type residue, site number, new residue.
The median of three replicates is given, with the replicates in brackets.
Input reads are the counts in the merged round-one pool, before selection.
Not every substitution is listed.
The authors note that some positive scores may be noise, and some enriched variants failed when tested singly.
The scan is noisy: the rank correlation of replicates is about 0.4 to 0.65, and variants with under about 50 input reads tend to read too high.

{"mutation": "D78C", "input reads": "477", "median log2 enrichment": "-1.83 (-2.81 0.88 -1.83)"}
{"mutation": "D78E", "input reads": "767", "median log2 enrichment": "-0.76 (-0.76 -2.88 2.67)"}
{"mutation": "D78G", "input reads": "116", "median log2 enrichment": "-1.49 (-4.23 3.34 -1.49)"}
{"mutation": "D78H", "input reads": "747", "median log2 enrichment": "-2.29 (-1.96 -2.64 -2.29)"}
{"mutation": "D78K", "input reads": "457", "median log2 enrichment": "-1.35 (-1.35 1.88 -1.98)"}
{"mutation": "D78N", "input reads": "93", "median log2 enrichment": "0.84 (0.84 4.10 0.19)"}
{"mutation": "D78P", "input reads": "546", "median log2 enrichment": "-3.00 (-3.00 -4.99 -2.49)"}
{"mutation": "D78Q", "input reads": "809", "median log2 enrichment": "-2.03 (-1.15 -3.66 -2.03)"}
{"mutation": "D78S", "input reads": "39", "median log2 enrichment": "0.61 (0.50 5.03 0.61)"}
{"mutation": "D78V", "input reads": "1710", "median log2 enrichment": "-0.89 (-1.42 -0.89 2.05)"}
{"mutation": "D78W", "input reads": "419", "median log2 enrichment": "-3.70 (-4.49 -3.55 -3.70)"}
{"mutation": "D78Y", "input reads": "918", "median log2 enrichment": "-0.09 (-1.72 0.58 -0.09)"}
{"mutation": "W79C", "input reads": "72", "median log2 enrichment": "-1.69 (-1.96 0.28 -1.69)"}
{"mutation": "W79D", "input reads": "21", "median log2 enrichment": "1.38 (1.38 6.12 1.20)"}
{"mutation": "W79E", "input reads": "486", "median log2 enrichment": "-3.95 (-4.71 -3.91 -3.95)"}
{"mutation": "W79I", "input reads": "1426", "median log2 enrichment": "-3.45 (-3.45 -5.33 -2.38)"}
{"mutation": "W79K", "input reads": "1382", "median log2 enrichment": "0.20 (1.18 0.20 -1.10)"}
{"mutation": "W79N", "input reads": "469", "median log2 enrichment": "-3.07 (-3.07 -4.55 -3.00)"}
{"mutation": "W79P", "input reads": "408", "median log2 enrichment": "-0.91 (-0.91 -3.01 1.80)"}
{"mutation": "W79S", "input reads": "416", "median log2 enrichment": "-2.37 (-2.37 -4.62 0.92)"}
{"mutation": "W79T", "input reads": "1352", "median log2 enrichment": "-2.15 (-2.15 -0.12 -3.37)"}
{"mutation": "W79V", "input reads": "353", "median log2 enrichment": "-0.62 (-0.62 2.06 -1.01)"}
{"mutation": "W79Y", "input reads": "625", "median log2 enrichment": "-2.41 (-2.41 -4.27 -1.24)"}
{"mutation": "H80A", "input reads": "364", "median log2 enrichment": "-3.47 (-3.05 -5.07 -3.47)"}
{"mutation": "H80C", "input reads": "416", "median log2 enrichment": "-4.61 (-2.88 -4.61 -4.89)"}
{"mutation": "H80D", "input reads": "42", "median log2 enrichment": "-0.01 (0.41 -1.07 -0.01)"}
{"mutation": "H80E", "input reads": "433", "median log2 enrichment": "-3.79 (-3.79 -4.67 -2.00)"}
{"mutation": "H80F", "input reads": "793", "median log2 enrichment": "-2.36 (-0.83 -3.16 -2.36)"}
{"mutation": "H80N", "input reads": "28", "median log2 enrichment": "2.95 (-2.18 5.21 2.95)"}
{"mutation": "H80Q", "input reads": "191", "median log2 enrichment": "0.56 (0.56 -1.27 6.19)"}
{"mutation": "H80R", "input reads": "400", "median log2 enrichment": "-4.09 (-3.67 -5.69 -4.09)"}
{"mutation": "H80T", "input reads": "744", "median log2 enrichment": "-2.64 (-2.64 1.67 -2.66)"}
{"mutation": "H80V", "input reads": "34", "median log2 enrichment": "1.45 (1.45 0.81 5.29)"}
{"mutation": "H80Y", "input reads": "752", "median log2 enrichment": "-0.19 (2.17 -0.19 -1.97)"}
{"mutation": "L81C", "input reads": "338", "median log2 enrichment": "-2.62 (-1.27 -3.62 -2.62)"}
{"mutation": "L81D", "input reads": "146", "median log2 enrichment": "0.97 (0.97 -1.49 5.78)"}
{"mutation": "L81E", "input reads": "88", "median log2 enrichment": "-0.25 (-1.17 3.78 -0.25)"}
{"mutation": "L81F", "input reads": "508", "median log2 enrichment": "1.08 (-1.46 1.40 1.08)"}
{"mutation": "L81N", "input reads": "506", "median log2 enrichment": "-2.25 (-2.25 -2.72 0.76)"}
{"mutation": "L81Q", "input reads": "383", "median log2 enrichment": "-3.19 (-3.29 -1.92 -3.19)"}
{"mutation": "L81R", "input reads": "31", "median log2 enrichment": "1.11 (5.96 -1.24 1.11)"}
{"mutation": "L81S", "input reads": "409", "median log2 enrichment": "-1.80 (-1.80 1.31 -2.34)"}
{"mutation": "L81T", "input reads": "316", "median log2 enrichment": "-1.86 (-0.96 -2.85 -1.86)"}
{"mutation": "L81V", "input reads": "1464", "median log2 enrichment": "-0.08 (-0.08 0.18 -1.81)"}
{"mutation": "L81W", "input reads": "507", "median log2 enrichment": "-0.83 (-0.83 -0.86 2.76)"}